In article PMC3461044, “Probing Protein Sequences as Sources for Encrypted Antimicrobial Peptides” (PLoS ONE, 2012):

What was measured:
[1] = Differential scanning calorimetry of the main phase transition of LUVs with peptide; conditions: pH 7.4, non-two state fit; for Tm broad, fitted (transition temperature): 0.5 mM DMPC LUVs + peptide 4 mol% (20 µM), 20 mM sodium phosphate, 150 mM NaCl, 1°C/min; for Tm broad, fitted (transition temperature) / DH broad, fitted (transition enthalpy) / DHvh broad, fitted (van't Hoff transition enthalpy): broad component; for DH broad, fitted (transition enthalpy) / DHvh broad, fitted (van't Hoff transition enthalpy) / DH sharp, fitted (transition enthalpy) / DHvh sharp, fitted (van't Hoff transition enthalpy) / Tm sharp, fitted (transition temperature): 0.5 mM DMPC LUVs + peptide 4 mol%; for DH sharp, fitted (transition enthalpy) / DHvh sharp, fitted (van't Hoff transition enthalpy) / Tm sharp, fitted (transition temperature): sharp component
[2] = Far UV circular dichroism of peptides with DMPC LUVs (MRE, α-helix percentage); conditions: for % Helicity 0.01 peptide/DMPC (mol/mol) (Greenfield 69) / % Helicity 0.01 peptide/DMPC (mol/mol) (Chen 74): DMPC LUVs; for % Helicity 0.01 peptide/DMPC (mol/mol) (Greenfield 69): from [q]208 nm, Greenfield et al. 1969; for % Helicity 0.01 peptide/DMPC (mol/mol) (Chen 74): from [q]222 nm, Chen et al. 1974; for [q]208 nm 0.01 peptide/DMPC (mol/mol) (Greenfield 69): Mean Residue Ellipticity at 208 nm; for [q]208 nm 0.01 peptide/DMPC (mol/mol) (Greenfield 69) / [q]222 nm 0.01 peptide/DMPC (mol/mol) (Chen 74): titrated with DMPC LUVs; for [q]222 nm 0.01 peptide/DMPC (mol/mol) (Chen 74): Mean Residue Ellipticity at 222 nm
[3] = Far UV circular dichroism of peptides with 2:1 DMPC:DMPG LUVs (MRE, α-helix percentage); conditions: 0.01 peptide/lipid (mol/mol); for % Helicity 0.01 peptide/(2:1 DMPC/DMPG) (mol/mol) (Greenfield 69) / % Helicity 0.01 peptide/(2:1 DMPC/DMPG) (mol/mol): 2:1 DMPC/DMPG LUVs; for % Helicity 0.01 peptide/(2:1 DMPC/DMPG) (mol/mol) (Greenfield 69): from [q]208 nm, Greenfield et al. 1969; for % Helicity 0.01 peptide/(2:1 DMPC/DMPG) (mol/mol): from [q]222 nm, Chen et al. 1974; for [q]208 nm 0.01 peptide/(2:1 DMPC/DMPG) (mol/mol) (Greenfield 69): Mean Residue Ellipticity at 208 nm; for [q]208 nm 0.01 peptide/(2:1 DMPC/DMPG) (mol/mol) (Greenfield 69) / [q]222 nm 0.01 peptide/(2:1 DMPC/DMPG) (mol/mol) (Chen 74): titrated with 2:1 DMPC/DMPG LUVs; for [q]222 nm 0.01 peptide/(2:1 DMPC/DMPG) (mol/mol) (Chen 74): Mean Residue Ellipticity at 222 nm

Sequence: GLWSTIKQKGKE [DS 01 (1–12), fragment 1–12 of DS 01, Phyllomedusa oreades, reference compound]
- Tm broad, fitted (transition temperature) [1]: 23.49 °C
- DH broad, fitted (transition enthalpy) [1]: 2.58 kcal/mol
- DHvh broad, fitted (van't Hoff transition enthalpy) [1]: 282 kcal/mol
- DH sharp, fitted (transition enthalpy) [1]: 1.8 kcal/mol
- DHvh sharp, fitted (van't Hoff transition enthalpy) [1]: 1060 kcal/mol
- Tm sharp, fitted (transition temperature) [1]: 24.18 °C
- % Helicity 0.01 peptide/DMPC (mol/mol) (Greenfield 69) [2]: 18.8%
- % Helicity 0.01 peptide/DMPC (mol/mol) (Chen 74) [2]: 3.7%
- [q]208 nm 0.01 peptide/DMPC (mol/mol) (Greenfield 69) [2]: -9447
- [q]222 nm 0.01 peptide/DMPC (mol/mol) (Chen 74) [2]: -1312
- % Helicity 0.01 peptide/(2:1 DMPC/DMPG) (mol/mol) (Greenfield 69) [3]: 18.4%
- % Helicity 0.01 peptide/(2:1 DMPC/DMPG) (mol/mol) [3]: 10.7%
- [q]208 nm 0.01 peptide/(2:1 DMPC/DMPG) (mol/mol) (Greenfield 69) [3]: -9322
- [q]222 nm 0.01 peptide/(2:1 DMPC/DMPG) (mol/mol) (Chen 74) [3]: -3767

Sequence: IAAAQRITSGAADIAINWAGGLHHAKK [B0CZJ3(104–130), putative IAP; fragment of Histone deacetylase complex, Laccaria bicolor]
- Tm broad, fitted (transition temperature) [1]: 23.5 °C
- DH broad, fitted (transition enthalpy) [1]: 2.67 kcal/mol
- DHvh broad, fitted (van't Hoff transition enthalpy) [1]: 295 kcal/mol
- DH sharp, fitted (transition enthalpy) [1]: 2.03 kcal/mol
- DHvh sharp, fitted (van't Hoff transition enthalpy) [1]: 1030 kcal/mol
- Tm sharp, fitted (transition temperature) [1]: 24.2 °C
- % Helicity 0.01 peptide/DMPC (mol/mol) (Greenfield 69) [2]: 32.4%
- % Helicity 0.01 peptide/DMPC (mol/mol) (Chen 74) [2]: 16.2%
- [q]208 nm 0.01 peptide/DMPC (mol/mol) (Greenfield 69) [2]: -13392
- [q]222 nm 0.01 peptide/DMPC (mol/mol) (Chen 74) [2]: -5729
- % Helicity 0.01 peptide/(2:1 DMPC/DMPG) (mol/mol) (Greenfield 69) [3]: 34.9%
- % Helicity 0.01 peptide/(2:1 DMPC/DMPG) (mol/mol) [3]: 19.6%
- [q]208 nm 0.01 peptide/(2:1 DMPC/DMPG) (mol/mol) (Greenfield 69) [3]: -14114
- [q]222 nm 0.01 peptide/(2:1 DMPC/DMPG) (mol/mol) (Chen 74) [3]: -6900

Sequence: GHRGALKDWVQAAGGAVAAFDFTTKG [Q8RW88(70–95), putative IAP; fragment of Alpha-amylase, Citrus reticulata]
- Tm broad, fitted (transition temperature) [1]: 23.49 °C
- DH broad, fitted (transition enthalpy) [1]: 2.67 kcal/mol
- DHvh broad, fitted (van't Hoff transition enthalpy) [1]: 285 kcal/mol
- DH sharp, fitted (transition enthalpy) [1]: 2.01 kcal/mol
- DHvh sharp, fitted (van't Hoff transition enthalpy) [1]: 1010 kcal/mol
- Tm sharp, fitted (transition temperature) [1]: 24.2 °C
- % Helicity 0.01 peptide/DMPC (mol/mol) (Greenfield 69) [2]: 1.5%
- % Helicity 0.01 peptide/DMPC (mol/mol) (Chen 74) [2]: 12.5%
- [q]208 nm 0.01 peptide/DMPC (mol/mol) (Greenfield 69) [2]: -4424
- [q]222 nm 0.01 peptide/DMPC (mol/mol) (Chen 74) [2]: -4406
- % Helicity 0.01 peptide/(2:1 DMPC/DMPG) (mol/mol) (Greenfield 69) [3]: -1.2%
- % Helicity 0.01 peptide/(2:1 DMPC/DMPG) (mol/mol) [3]: 15.1%
- [q]208 nm 0.01 peptide/(2:1 DMPC/DMPG) (mol/mol) (Greenfield 69) [3]: -3645
- [q]222 nm 0.01 peptide/(2:1 DMPC/DMPG) (mol/mol) (Chen 74) [3]: -5317

Sequence: SLWKNLSRKISGAVKAQPDLHTLLPLPGS [Q9XEY7(120–148), putative IAP; fragment of Trehalase 1 GMTRE1, Glycine max]
- Tm broad, fitted (transition temperature) [1]: 23.49 °C
- DH broad, fitted (transition enthalpy) [1]: 2.57 kcal/mol
- DHvh broad, fitted (van't Hoff transition enthalpy) [1]: 306 kcal/mol
- DH sharp, fitted (transition enthalpy) [1]: 2.22 kcal/mol
- DHvh sharp, fitted (van't Hoff transition enthalpy) [1]: 909 kcal/mol
- Tm sharp, fitted (transition temperature) [1]: 24.17 °C
- % Helicity 0.01 peptide/DMPC (mol/mol) (Greenfield 69) [2]: 24.2%
- % Helicity 0.01 peptide/DMPC (mol/mol) (Chen 74) [2]: 9%
- [q]208 nm 0.01 peptide/DMPC (mol/mol) (Greenfield 69) [2]: -11017
- [q]222 nm 0.01 peptide/DMPC (mol/mol) (Chen 74) [2]: -3183
- % Helicity 0.01 peptide/(2:1 DMPC/DMPG) (mol/mol) (Greenfield 69) [3]: 49.3%
- % Helicity 0.01 peptide/(2:1 DMPC/DMPG) (mol/mol) [3]: 34.5%
- [q]208 nm 0.01 peptide/(2:1 DMPC/DMPG) (mol/mol) (Greenfield 69) [3]: -18288
- [q]222 nm 0.01 peptide/(2:1 DMPC/DMPG) (mol/mol) (Chen 74) [3]: -12158

Sequence: VWTTAMEKSSAANFSMSRNQRRSSLHSL [gb|AAD22970.1|(120–148), putative IAP; fragment of Trehalase 1 GMTRE1, Glycine max]
- Tm broad, fitted (transition temperature) [1]: 23.49 °C
- DH broad, fitted (transition enthalpy) [1]: 2.62 kcal/mol
- DHvh broad, fitted (van't Hoff transition enthalpy) [1]: 294 kcal/mol
- DH sharp, fitted (transition enthalpy) [1]: 2.08 kcal/mol
- DHvh sharp, fitted (van't Hoff transition enthalpy) [1]: 990 kcal/mol
- Tm sharp, fitted (transition temperature) [1]: 24.19 °C

Sequence: GLWQIFSSKEEGKDNSQQKSKGDQAKEL [gb|ACU24018.1|(73–101), putative IAP; fragment of Unknown protein, Glycine max]
- Tm broad, fitted (transition temperature) [1]: 23.49 °C
- DH broad, fitted (transition enthalpy) [1]: 2.82 kcal/mol
- DHvh broad, fitted (van't Hoff transition enthalpy) [1]: 297 kcal/mol
- DH sharp, fitted (transition enthalpy) [1]: 2.21 kcal/mol
- DHvh sharp, fitted (van't Hoff transition enthalpy) [1]: 1010 kcal/mol
- Tm sharp, fitted (transition temperature) [1]: 24.2 °C
- % Helicity 0.01 peptide/DMPC (mol/mol) (Greenfield 69) [2]: 11.1%
- % Helicity 0.01 peptide/DMPC (mol/mol) (Chen 74) [2]: 5.4%
- [q]208 nm 0.01 peptide/DMPC (mol/mol) (Greenfield 69) [2]: -7231
- [q]222 nm 0.01 peptide/DMPC (mol/mol) (Chen 74) [2]: -1898
- % Helicity 0.01 peptide/(2:1 DMPC/DMPG) (mol/mol) (Greenfield 69) [3]: 9.0%
- % Helicity 0.01 peptide/(2:1 DMPC/DMPG) (mol/mol) [3]: 6.4%
- [q]208 nm 0.01 peptide/(2:1 DMPC/DMPG) (mol/mol) (Greenfield 69) [3]: -6610
- [q]222 nm 0.01 peptide/(2:1 DMPC/DMPG) (mol/mol) (Chen 74) [3]: -2273

Sequence: KLKKLLAGQKDGLLGQIAAMSDLYTKK [P94692(929–955), putative IAP; fragment of Pyruvate-ferredoxin oxidoreductase, Desulfovibrio africanus]
- Tm broad, fitted (transition temperature) [1]: 23.5 °C
- DH broad, fitted (transition enthalpy) [1]: 2.43 kcal/mol
- DHvh broad, fitted (van't Hoff transition enthalpy) [1]: 304 kcal/mol
- DH sharp, fitted (transition enthalpy) [1]: 1.85 kcal/mol
- DHvh sharp, fitted (van't Hoff transition enthalpy) [1]: 1050 kcal/mol
- Tm sharp, fitted (transition temperature) [1]: 24.19 °C
- % Helicity 0.01 peptide/DMPC (mol/mol) (Greenfield 69) [2]: 8.3%
- % Helicity 0.01 peptide/DMPC (mol/mol) (Chen 74) [2]: 8.2%
- [q]208 nm 0.01 peptide/DMPC (mol/mol) (Greenfield 69) [2]: -6412
- [q]222 nm 0.01 peptide/DMPC (mol/mol) (Chen 74) [2]: -2899
- % Helicity 0.01 peptide/(2:1 DMPC/DMPG) (mol/mol) (Greenfield 69) [3]: 40.7%
- % Helicity 0.01 peptide/(2:1 DMPC/DMPG) (mol/mol) [3]: 34.7%
- [q]208 nm 0.01 peptide/(2:1 DMPC/DMPG) (mol/mol) (Greenfield 69) [3]: -15801
- [q]222 nm 0.01 peptide/(2:1 DMPC/DMPG) (mol/mol) (Chen 74) [3]: -12242
